Pooled drug test results. Numbers come from NIAID ChemDB, via PubChem.

All rows: host cell toxicity; cell line: TZM-bl; read by: MTT; read-out: CC50

CCn: concentration that lowers growth or viability of the cells by n%. Neighbouring rows are from separate reports.

structure	result
Cc1ccc(C)c(N/N=C/c2ccc3cccc(O)c3n2)c1	98.71 µM
C[Si](C)(CCCN(CCS(=O)(=O)O)CCS(=O)(=O)O)CCC[Si](C)(CCC[Si](C)(C)CCCN(CCS(=O)(=O)O)CCS(=O)(=O)O)CCC[Si](CCC[Si](C)(CCC[Si](C)(C)CCCN(CCS(=O)(=O)O)CCS(=O)(=O)O)CCC[Si](C)(C)CCCN(CCS(=O)(=O)O)CCS(=O)(=O)O)(CCC[Si](C)(CCC[Si](C)(C)CCCN(CCS(=O)(=O)O)CCS(=O)(=O)O)CCC[Si](C)(C)CCCN(CCS(=O)(=O)O)CCS(=O)(=O)O)CCC[Si](C)(CCC[Si](C)(C)CCCN(CCS(=O)(=O)O)CCS(=O)(=O)O)CCC[Si](C)(C)CCCN(CCS(=O)(=O)O)CCS(=O)(=O)O	>100 µM
COc1ccc(N=Cc2cc3ccccc3nc2Nc2ccc(OC)cc2)cc1	122 µM
Cc1ccc(-c2cc(-c3ccccc3)n(-c3ccc(C(C)C)cc3)n2)c(=O)[nH]1	385.2 µM
Cc1cn(CC(=O)Nc2ccccn2)c(=O)[nH]c1=O	49 µM
COc1ccc(N(C)C(=O)[C@H](Cc2cc(F)cc(F)c2)NC(=O)c2cccc(-c3cn(C4CC(n5cc(C)c(=O)[nH]c5=O)OC4CO)nn3)c2)cc1	>27.94 µM
Cc1ccc(/C=C/c2cc(Cl)c3cc(Cl)ccc3n2)cc1	46.47 µM
CCN(CC)C(=O)Oc1ccc2cccnc2c1-c1cccc2cccnc12	>200 µM
Clc1ccc(N=Cc2cc3ccccc3nc2Nc2ccc(Cl)cc2)cc1	79.15 µM
CC(C)(C)OC(=O)c1cccc(Cn2ccc3ccc(-c4ccc5ccn(Cc6cccc(C(=O)O)c6)c5c4)cc32)c1	>20 µM
Cc1ccc(N/N=C/c2ccc3cccc(O)c3n2)cc1C	34.32 µM
Cc1cccc(N2C(=O)CSC2c2c(Br)cncc2Br)n1	26.7 µg/mL
Cc1ccc(-c2cc(-c3ccccc3)n(-c3ccc(C(C)(C)C)cc3)n2)c(=O)[nH]1	333 µM
COc1cccc2ccc(C(CC(=O)Nc3ccccc3)Nc3ccccc3)nc12	79.15 µM
COc1cc(/C=C/c2cc(Cl)c3cc(Cl)ccc3n2)cc(OC)c1	49.14 µM
Cc1ccc(-c2cc(-c3ccccc3)n(-c3ccccc3)n2)c(=O)[nH]1	140 µM
O=C(Cn1ccc(=O)[nH]c1=O)Nc1ccccn1	602 µM
Cc1cc(N2C(=O)CSC2c2c(Cl)cncc2Cl)nc(C)c1Br	15.6 µg/mL
Clc1cc(/C=C/c2ccc(N3CCCC3)cc2)nc2ccccc12	33.45 µM
Oc1cc(/C=C/c2cc(O)c(O)c(O)c2)cc(O)c1O	20.1 µM
CC(C)(C)c1cc(N2C(=O)CSC2c2c(F)cccc2F)no1	45.9 µg/mL
Clc1cc(/C=C/c2cccc3ccccc23)nc2ccccc12	67.77 µM
Cc1ccc2cccc(O)c2n1	4.84 µM
COc1cccc2ccc(-c3nnc(-c4ccc(N(C)C)cc4)o3)nc12	115 µM
Cc1cc(C)c(Nc2nc(N)nc(Nc3ccc(C#N)nc3)n2)c(C)c1	33.5 µg/mL
Cc1cc(N2C(=O)CSC2c2c(F)cccc2Cl)no1	38.5 µg/mL
O=C(Cn1cnc2ccccc21)Nc1ccccn1	542 µM
COc1ccc(/C=C/c2cc(Cl)c3cc(Cl)ccc3n2)cc1	19.08 µM
Cc1ccc(-n2nc(-c3ccc(C)[nH]c3=O)cc2-c2ccccc2)cc1	136 µM
Cc1cn(CC(=O)Nc2ccc([N+](=O)[O-])cn2)c(=O)[nH]c1=O	78.75 µM
COc1ccc(Cn2cc(-c3ccc4c(c3)OCO4)c3ccc(-c4ccc5ccccc5c4)nc32)cc1	58.12 µM
CCc1ccccc1-n1nc(-c2ccc(C)[nH]c2=O)cc1-c1ccccc1	18.23 µM
Oc1cccc2ccc(/C=N/Nc3ccc(Cl)cc3Cl)nc12	52.68 µM
Clc1ccc2nc(/C=C/c3ccco3)cc(Cl)c2c1	41.02 µM
COc1ccc(-n2nc(-c3ccc(C)[nH]c3=O)cc2-c2ccccc2)cc1	325 µM
c1cncc(-c2nc(Nc3ccc4n[nH]nc4c3)c3ccccc3n2)c1	150 µM
Cc1cc(C)nc(N2C(=O)CSC2c2c(Cl)cncc2Cl)c1	37.3 µg/mL
CCOC(=O)c1cccc(Nc2nc(-c3cccnc3)nc3ccccc23)c1	15 µM
COc1cccc2ccc(/C=C/C(=O)Nc3ccccc3F)nc12	53.61 µM
COc1cc(Br)ccc1/C=C/c1cc(Cl)c2cc(Cl)ccc2n1	20.29 µM
Fc1ccc(N=Cc2cc3ccccc3nc2Nc2ccc(F)cc2)cc1	92.13 µM
Cc1ccc(-n2nc(-c3ccc(C)[nH]c3=O)cc2-c2ccccc2)c(C)c1	50.99 µM
Clc1ccc2nc(/C=C/c3ccc(-c4ccccc4)cc3)cc(Cl)c2c1	17.54 µM